PubChem BioAssay AID504761 | Drosophila RNAi Screening Center – 2011
In all, the deposit lists about 22,000 reagents; this is a random part of those that have a named target and a result. Of all reagents, 116 (0.52%) were called active. 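Calls depend on retest data that are not deposited; infection was ranked per plate without normalising between plates; the unit of the infection score is not given.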 Not all columns of the deposit are shown. Not stated in the record: the amount of reagent, the time to read-out.

Screen: 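Insect host genes that dengue virus relies on to spread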 (primary screen)
Cells: D.Mel-2 cells from Drosophila
Reagent: long dsRNA against Drosophila genes
Conditions: infection with dengue virus type 2; dose and infection time not stated
Measured: 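Cells stained for dengue envelope protein and imaged; percent of infected cells per well on duplicate plates, ranked by infection, with stained nuclei counted for cell number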
Direction: infection score: higher = more virus-infected cells
Hit rule: 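Low infection ranks in the two replicates (chance level up to 0.065) followed by a retest with a 1.5-fold or larger significant decrease, p below 0.05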
Calls: active = confirmed: knock-down lowers infection; inactive = not picked or not confirmed

Sptr (Sepiapterin reductase) [DRSC18719] — infection score, replicate 1: 0.65; outcome: inactive
Mpcp1 [DRSC07337] — infection score, replicate 1: 4.34; outcome: inactive
CG14370 [DRSC14832] — infection score, replicate 1: 3.9; outcome: inactive
Ppa (Partner of paired) [DRSC04598] — infection score, replicate 1: 4.11; outcome: inactive
Ppa (Partner of paired) [DRSC28700] — infection score, replicate 1: 8.81; outcome: inactive
Prosap [DRSC06382] — infection score, replicate 1: 5.22; outcome: inactive
Prosap [DRSC07081] — infection score, replicate 1: 15.9; outcome: inactive
CG8958 [DRSC20134] — infection score, replicate 1: 10.4; outcome: inactive
CG8958 [DRSC29479] — infection score, replicate 1: 16.2; outcome: inactive
CG34051 [DRSC01739] — infection score, replicate 1: 20.5; outcome: inactive
holn1 (hole-in-one) [DRSC02827] — infection score, replicate 1: 16.9; outcome: inactive
holn1 (hole-in-one) [DRSC22822] — infection score, replicate 1: 3.03; outcome: inactive
lin (lines) [DRSC07644] — infection score, replicate 1: 14.7; outcome: inactive
lin (lines) [DRSC28074] — infection score, replicate 1: 27.2; outcome: inactive
Tip60 (Tat interactive protein 60kDa) [DRSC18661] — infection score, replicate 1: 6.19; outcome: inactive
CG8100 [DRSC10961] — infection score, replicate 1: 2; outcome: inactive
CG16721 [DRSC18113] — infection score, replicate 1: 3.18; outcome: inactive
CheA29a (Chemosensory protein A 29a) [DRSC21486] — infection score, replicate 1: 3.3; outcome: inactive
Cow [DRSC13601] — infection score, replicate 1: 4.81; outcome: inactive
Cow [DRSC14680] — infection score, replicate 1: 7.82; outcome: inactive
Cow [DRSC29766] — infection score, replicate 1: 51.5; outcome: inactive
Cp7Fa (Chorion protein a at 7F) [DRSC18032] — infection score, replicate 1: 10.3; outcome: inactive
Cp7Fa (Chorion protein a at 7F) [DRSC18033] — infection score, replicate 1: 7.89; outcome: inactive
Cp7Fa (Chorion protein a at 7F) [DRSC24279] — infection score, replicate 1: 4.69; outcome: inactive
Mettl2 (Methyltransferase like 2) [DRSC08398] — infection score, replicate 1: 3.72; outcome: inactive
Mettl2 (Methyltransferase like 2) [DRSC29727] — infection score, replicate 1: 8.97; outcome: inactive
COX4 (Cytochrome c oxidase subunit 4) [DRSC02091] — infection score, replicate 1: 19.4; outcome: inactive
COX4 (Cytochrome c oxidase subunit 4) [DRSC23915] — infection score, replicate 1: 10.6; outcome: inactive
